Results of unrelated studies side by side (data: NIAID ChemDB).

All rows: whole-cell or culture tests; organism: Mycobacterium tuberculosis

Conditions beyond the fields shown may differ between rows.

structure	read-out	strain or isolate	conditions	dose	mutations	method	result
NCCCCCCCCCCN	MIC	H37Rv					3.12 µg/mL
CCOC(=O)c1cnc2c(ccc3ncccc32)c1Cl	inhibition	H37Rv		12.5 µg/mL		BACTEC	2%
C1=C(CCNCCNCC(c2ccccc2)c2ccccc2)CCCC1	MIC						25 µM
CCCCCOc1ccccc1NC(=O)OCCN1CCCCC1	MIC	My 331/88					32 µM
CCCCCCCCc1ccc2c(c1)C(=O)c1nc3cc(N4CCN(C)CC4)ccc3c(=O)n1-2	MIC	H37Rv					0.13 µg/mL
CC(C)c1ccc2c(c1)CC[C@H]1[C@](C)(CNCCNC[C@@H]3CC[C@H]4C[C@@H]3C4(C)C)CCC[C@]21C	MIC						50 µM
COc1cc(O)c2c(=O)cc(-c3ccc(O)cc3)oc2c1	MIC	H37Rv				resazurin	>50 µg/mL
CN[C@@H]1[C@H](O[C@H]2[C@H](O[C@H]3[C@H](O)[C@@H](O)[C@H](N=C(N)N)[C@@H](O)[C@@H]3N=C(N)N)O[C@@H](C)[C@]2(O)C=O)O[C@@H](CO)[C@H](O)[C@H]1O	MIC99	Praha 4			MDR	broth dilution	>32 µM
Cc1cc(NC(=O)c2ccc(N=Nc3c(S(=O)(=O)O)cc4cc(NC(=O)c5ccc(N)cc5)ccc4c3O)cc2)ccc1N=Nc1ccc2cc(S(=O)(=O)O)cc(S(=O)(=O)O)c2c1	inhibition	H37Rv		12.5 µg/mL		BACTEC	0%
O=C(CNC(=O)c1ccccc1)SCC1CS1	MIC	H37Rv					>50 µg/mL
COCCOCc1ccc2c(c1)C(=O)c1nc3ccncc3c(=O)n1-2	MIC	H37Rv					0.13 µg/mL
CCN(CC)CCNC(=O)c1nn(C)c(=S)[nH]c1=O	inhibition	H37Rv		12.5 µg/mL		BACTEC	-9%
CC1CN(C(=O)OC(C)(C)C)CCN1c1cc2nc3n(c(=O)c2cc1F)-c1ccc(I)cc1C3=O	MIC	H37Rv					>4 µg/mL
CCCCCOc1cccc(NC(=O)OCCN2CCCCC2)c1	MIC	My 331/88					16 µM
Cc1ccc2oc3c(ccc(=O)n3C)c(=O)c2c1	MIC bound	H37Rv				BACTEC	>12.5 µg/mL
CCCCN(C)C(=O)COc1cc2c(O)c3c(O)c(C)c4c(c13)C(=O)[C@@](C)(O/C=C/[C@H](OC)[C@@H](C)[C@@H](OC(C)=O)[C@H](C)[C@H](O)[C@H](C)[C@@H](O)[C@@H](C)/C=C/C=C(/C)C(=O)N2)O4	MIC	H37Rv					0.37 µg/mL
CCCc1ncc(C(N)=S)nc1Sc1ccccc1	inhibition	H37Rv		12.5 µg/mL			63%
O=C1c2cc(F)ccc2-n2c1nc1ncccc1c2=O	MBC	H37Rv					4 µg/mL
CCCCCCCOc1ccccc1NC(=O)OCCN1CCCCC1	MIC	My 331/88					32 µM
CCSCC(=O)OCC(S)CS	MIC	H37Rv					25 µg/mL
CC(CCC/C=C/CCCN(C)C(=N)N)CC(C)C1OC(=O)C(C)C(O)/C=C/C(C)C(O)C(C)C(O)C(C)C(O)CCCC(O)CC2(O)OC(CC(OC(=O)CC(=O)O)CC(O)CC(O)C(C)C(O)/C=C/C=C/C1C)CC(O)C2O	inhibition	H37Rv		12.8 µg/mL		BACTEC	47%
CCCCCCCCc1ccc2c(c1)C(=O)c1nc3cc(CCCCCCCC)ccc3c(=O)n1-2	MIC	H37Rv					>8 µg/mL
CC(CNCCNCCC(c1ccccc1)c1ccccc1)c1ccccc1	MIC						50 µM
CCCCCOc1ccccc1NC(=O)OC(COCC)CN1CCCCC1	MIC	My 331/88					62.5 µM
CC(=O)SCC(CO)SC(C)=O	MIC	H37Rv					0.8 µg/mL
c1cc2ccc3ccc[n+]4c3c2[n+](c1)CCC4	MIC bound	H37Rv				BACTEC	>12.5 µg/mL
CCCCCCCOc1cccc(NC(=O)OC(C)CN2CCCCC2)c1	MIC	My 331/88					8 µM
CCC(C)N(C(=O)COc1cc2c(O)c3c(O)c(C)c4c(c13)C(=O)[C@@](C)(O/C=C/[C@H](OC)[C@@H](C)[C@@H](OC(C)=O)[C@H](C)[C@H](O)[C@H](C)[C@@H](O)[C@@H](C)/C=C/C=C(/C)C(=O)N2)O4)C(C)CC	MIC	H37Rv					0.3 µg/mL
CCSc1nc(C(N)=S)cnc1C(C)(C)C	inhibition	H37Rv		12.5 µg/mL			<90%
NCC[C@H](O)C(=O)N[C@@H]1C[C@H](N)[C@@H](O[C@H]2O[C@H](CN)[C@@H](O)[C@H](O)[C@H]2O)[C@H](O)[C@H]1O[C@H]1O[C@H](CO)[C@@H](O)[C@H](N)[C@H]1O	MIC99	234/2005			MDR	broth dilution	0.5 µM
CCOC(=O)SCC1CS1	MIC	H37Rv					1.56 µg/mL
O=C1c2cc(Cl)ccc2-n2c1nc1cc(F)ccc1c2=O	MIC	H37Rv					0.13 µg/mL
O=c1cc(-c2ccccc2)c2cc(Cl)ccc2o1	MIC90	H37Rv				resazurin	>100 µg/mL
O=C1c2ccc(Cl)cc2-n2c1nc1ncccc1c2=O	MIC	H37Rv					0.13 µg/mL
COC(=O)c1c(OC)cc2cc3c(c(O)c2c1C)C(=O)[C@]1(O)C(=O)C=C(OC)[C@@H](O)[C@]1(O)C3=O	inhibition	H37Rv		12.5 µg/mL		BACTEC	73%
CO[C@H]1/C=C/O[C@@]2(C)Oc3c(C)c(O)c4c(O)c(c(/C=N/N5CCN(C)CC5)c(O)c4c3C2=O)NC(=O)/C(C)=C\C=C\[C@H](C)[C@H](O)[C@@H](C)[C@@H](O)[C@@H](C)[C@H](OC(C)=O)[C@@H]1C	MIC	H37Rv (rifampicin-resistant)					>40 µg/mL
CCN(CC)CC(O)CNc1c(C)cc(C)c2sc3ccccc3c(=O)c12	MIC	H37Rv				BACTEC	≥12.5 µg/mL
CCCN(C(=O)COc1cc2c(O)c3c(O)c(C)c4c(c13)C(=O)[C@@](C)(O/C=C/[C@H](OC)[C@@H](C)[C@@H](OC(C)=O)[C@H](C)[C@H](O)[C@H](C)[C@@H](O)[C@@H](C)/C=C/C=C(/C)C(=O)N2)O4)N1CCOCC1	MIC	H37Rv					0.37 µg/mL
COc1cc2c(cc1OC)C(C(=O)O)C1c3cc4c(cc3CCN1C2=O)OCO4	MIC bound	H37Rv				BACTEC	>12.5 µg/mL
O=[N+]([O-])c1cc(Cl)cc2[nH]c(/C=C/c3ccccc3)nc12	MIC	Isolate 192				broth dilution	>100 µg/mL
NNC(=O)c1ncn([C@@H]2O[C@H](CO)[C@@H](O)[C@H]2O)c1N	MIC bound	H37Rv				BACTEC	>12.5 µg/mL
CCCCOc1ccc(NC(=O)OCCN2CCCCC2)cc1	MIC	My 331/88					62.5 µM
NCCCCCCCCCCCCN	MIC	H37Rv					2.5 µg/mL
CCCCN(C(=O)COc1cc2c(O)c3c(O)c(C)c4c(c13)C(=O)[C@@](C)(O/C=C/[C@H](OC)[C@@H](C)[C@@H](OC(C)=O)[C@H](C)[C@H](O)[C@H](C)[C@@H](O)[C@@H](C)/C=C/C=C(/C)C(=O)N2)O4)N1CCCCC1	MIC	H37Rv					0.09 µg/mL
NNC(=O)c1cccs1	MIC bound	H37Rv				BACTEC	>12.5 µg/mL
CO[C@H]1/C=C/O[C@@]2(C)Oc3c(C)c(O)c4c(O)c(cc(OCC(=O)Nc5ccc(Br)cc5)c4c3C2=O)NC(=O)/C(C)=C\C=C\[C@H](C)[C@H](O)[C@@H](C)[C@@H](O)[C@@H](C)[C@H](OC(C)=O)[C@@H]1C	MIC	H37Rv					0.005 µg/mL
O=C(COc1ccc2c(=O)cc(-c3ccccc3)oc2c1)N1CCN(c2ccccc2)CC1	inhibition	H37Rv		6.25 µg/mL		resazurin	10%
CSc1nc(C(N)=O)cnc1C(C)(C)C	MIC	H37Rv					>12.5 µg/mL
CCCCCCCOc1ccc(NC(=O)OC(C)CN2CCCCC2)cc1	MIC	My 331/88					8 µM
CCOC(=O)C1N(S(=O)(=O)c2ccc(C)cc2)C(c2ccccc2)C(c2ccccc2)C1(O)c1ccccc1	MIC bound	H37Rv				BACTEC	>12.5 µg/mL
CC[C@@H](CO)NCCN[C@@H](CC)CO	MIC99	Praha 4			MDR	broth dilution	16 µM
CC(=O)OCCCCCCc1ccc2nc3n(c(=O)c2c1)-c1ccc(Cl)cc1C3=O	MIC	H37Rv					0.5 µg/mL
CCCCCOc1ccc(NC(=O)OC(C)CN2CCCCC2)cc1	MIC	My 331/88					16 µM
COc1cc(O)c2c(=O)c(OC)c(-c3ccc(O)cc3)oc2c1O	MIC	H37Rv				resazurin	>50 µg/mL
CCCc1ncc(C(N)=O)nc1Sc1ccccc1	MIC	H37Rv					>12.5 µg/mL
CC(=O)SCC(CSC(C)=O)OS(=O)(=O)c1ccc(C)cc1	MIC	H37Rv					6.25–12.5 µg/mL
CCCCSc1nc(C(N)=S)cnc1C(C)(C)C	MIC	H37Rv					>12.5 µg/mL
Nc1c(NC(=O)CCc2ccccc2)cc(Cl)cc1[N+](=O)[O-]	MIC	Isolate 192				broth dilution	>100 µg/mL
O=CSCCCC1CS1	MIC	H37Rv					3.125 µg/mL
Cc1ccc(N=C2C(=Nc3ccc(C)cc3)N(c3ccc(C)cc3)C(=S)N2C(=O)c2ccccc2)cc1	MIC bound	H37Rv				BACTEC	>12.5 µg/mL
CCCSc1nc(C(N)=O)cnc1C(C)(C)C	inhibition	H37Rv		12.5 µg/mL			<90%
CC(=O)Nc1ccc(C(=O)SCC2CS2)cc1	MIC	H37Rv					3.125–6.25 µg/mL
CC(C)(C)c1ncc(C(N)=O)nc1Sc1ccccc1	inhibition	H37Rv		12.5 µg/mL			<90%
COc1ccc2c(c1)[n+]([O-])c(-c1ccccc1)c(N)[n+]2[O-]	MIC	RMP-R					3.1 µg/mL
c1ccc(CCc2nc3cc4ccccc4cc3[nH]2)cc1	MIC	H37Rv				broth dilution	>100 µg/mL
CN[C@@H]1[C@@H](O)[C@@H](O[C@@H]2[C@@H](O)[C@H](O[C@H]3O[C@H](CN)CC[C@H]3N)[C@@H](N)C[C@H]2N)OC[C@]1(C)O	MIC99	Praha 131			MDR	broth dilution	>8 µM
O=[N+]([O-])c1cccnc1NCC1(CO)CCCC1	MIC bound	H37Rv				resazurin	>6.25 µg/mL
CCCCN(C(=O)COc1cc2c(O)c3c(O)c(C)c4c(c13)C(=O)[C@@](C)(O/C=C/[C@H](OC)[C@@H](C)[C@@H](OC(C)=O)[C@H](C)[C@H](O)[C@H](C)[C@@H](O)[C@@H](C)/C=C/C=C(/C)C(=O)N2)O4)N(C)C	MIC	H37Rv					0.15 µg/mL
CC(CNCC(c1ccccc1)c1ccccc1)N[C@H]1C[C@H]2C[C@@H]([C@@H]1C)C2(C)C	MIC						50 µM
CO[C@H]1/C=C/O[C@@]2(C)Oc3c(C)c(O)c4c(O)c(c(/C=N/N5CCN(C)CC5)c(O)c4c3C2=O)NC(=O)/C(C)=C\C=C\[C@H](C)[C@H](O)[C@@H](C)[C@@H](O)[C@@H](C)[C@H](OC(C)=O)[C@@H]1C	MIC99	8666/2010			MDR	broth dilution	>8 µM
C[C@H]1[C@H](c2ccc(O)cc2)c2cc(O)c(O)cc2C[C@H]1C	MIC	Clinical isolates	multidrug-resistant			resazurin	12.5 µg/mL
CSC(=S)N/N=C(/C)c1cccs1	MIC	RMP-R					0.8 µg/mL
O=[N+]([O-])c1cc(Cl)cc2[nH]c(CCc3ccccc3)nc12	MIC	Isolate 192				broth dilution	>100 µg/mL
CC(=O)Nc1ccc(/C=N/NC(=S)NC2CN3CCC2CC3)cc1	MIC bound	H37Rv				BACTEC	>12.5 µg/mL
CC1COc2c(N3CCN(C)CC3)c(F)cc3c(=O)c(C(=O)O)cn1c23	MIC99	8666/2010			MDR	broth dilution	2 µM
CC(C)Cc1ncc(C(N)=O)nc1Sc1ccccc1	inhibition	H37Rv		12.5 µg/mL			<90%
CC(=O)OC1COC(Nc2nc(NCc3ccccc3)n(C)c(=O)c2N=O)C(OC(C)=O)C1OC(C)=O	inhibition	H37Rv		6.25 µg/mL		resazurin	-21%
CCCSc1nc(C(N)=O)cnc1CC(C)C	MIC	H37Rv					>12.5 µg/mL
CCCCC(=O)N/N=C/c1cccc(OC)c1OC	inhibition	H37Rv		12.5 µg/mL		BACTEC	10%
NNC(=O)c1ccncc1	MIC99	234/2005			MDR	broth dilution	16 µM

Percent inhibition refers to the dose given; in toxicity tests it is the harm to the cells. MIC bound comes from a single tested concentration. MIC50, MIC90 and the like: level of inhibition, or share of isolates inhibited. Two numbers with a dash give a range or band. An empty or dashed field is not shown.